Measurements: patent US11168092B2 (priority 2019, dated 2021)

Assays:
[1] = system: ovarian cancer cells (SK-OV-3); assay: SRB bioassay, cytotoxicity on ovarian cancer cells; format: cell-based; parameters: unit not given here; conditions: 72 hours
[2] = system: colorectal cancer cells (HCT15); assay: SRB bioassay, cytotoxicity on colorectal cancer cells; format: cell-based; parameters: unit not given here; conditions: 72 hours
[3] = system: skin cancer cells (SK-MEL-2); assay: SRB bioassay, cytotoxicity on skin cancer cells; format: cell-based; parameters: unit not given here; conditions: 72 hours
[4] = system: lung cancer cells (A549), ovarian cancer cells (SK-OV-3), skin cancer cells (SK-MEL-2), and colorectal cancer cells (HCT15); conditions: read-out: IC50 value, over lung
lung cancer cells (A549) = assay: SRB bioassay, cytotoxicity on lung cancer cells; format: cell-based; parameters: unit not given here; conditions: 72 hours
[5] = SK-OV-3, concentration 0.0001 (mM)
[6] = SK-OV-3, concentration 0.001 (mM)
[7] = SK-OV-3, concentration 0.01 (mM)
[8] = SK-OV-3, concentration 0.1 (mM)
[9] = SK-OV-3, concentration 1.0 (mM)
[10] = SK-OV-3, concentration 10.0 (mM)
[11] = HCT15, concentration 0.0001 (mM)
[12] = HCT15, concentration 0.001 (mM)
[13] = SK-MEL-2, concentration 0.0001 (mM)
[14] = SK-MEL-2, concentration 0.001 (mM)
[15] = SK-MEL-2, concentration 0.01 (mM)
[16] = SK-MEL-2, concentration 0.1 (mM)
[17] = SK-MEL-2, concentration 1.0 (mM)
[18] = SK-MEL-2, concentration 10.0 (mM)

| Compound | Anticancer activity (value at given concentration) [1, 5] | Anticancer activity (value at given concentration) [1, 6] | Anticancer activity (value at given concentration) [1, 7] | Anticancer activity (value at given concentration) [1, 8] | Anticancer activity (value at given concentration) [1, 9] | Anticancer activity (value at given concentration) [1, 10] | Anticancer activity (value at given concentration) [2, 11] | Anticancer activity (value at given concentration) [2, 12] | Anticancer activity (value at given concentration) ([2]; HCT15, concentration 0.01 (mM)) | Anticancer activity (value at given concentration) ([2]; HCT15, concentration 0.1 (mM)) | Anticancer activity (value at given concentration) ([2]; HCT15, concentration 1.0 (mM)) | Anticancer activity (value at given concentration) ([2]; HCT15, concentration 10.0 (mM)) | Anticancer activity (value at given concentration) [3, 13] | Anticancer activity (value at given concentration) [3, 14] | Anticancer activity (value at given concentration) [3, 15] | Anticancer activity (value at given concentration) [3, 16] | Anticancer activity (value at given concentration) [3, 17] | Anticancer activity (value at given concentration) [3, 18] | also measured |
| --- | --- | --- | --- | --- | --- | --- | --- | --- | --- | --- | --- | --- | --- | --- | --- | --- | --- | --- | --- |
| CC1=C[C@H]2O[C@@H]3C[C@@H](OC(=O)/C=C\C=C\C(OCCC4=CC(=O)OC4)C(C)O)[C@](C)([C@@]2(CO)CC1)[C@]31CO1 (stereo partly shown) | 93.40 | 96.29 | 99.67 | 99.82 | 102.24 | 96.88 | – | – | – | – | – | – | – | – | – | – | – | – | – |
| CC1=C[C@H]2O[C@@H]3C[C@@H](OC(=O)/C=C\C=C\C4([C@H](C)O)OCC/C(=C\C(=O)O)[C@@H]4O)[C@](C)([C@@]2(CO)CC1)[C@]31CO1 (stereo partly shown) | 98.81 | 98.43 | 102.58 | 100.26 | 98.79 | 18.74 | – | – | – | – | – | – | – | – | – | – | – | – | – |
| CC1=C[C@H]2O[C@@H]3C[C@H]4OC(=O)/C=C\C=C\[C@]5([C@H](C)O)OCC/C(=C\C(=O)OC[C@@]2(CC1)[C@]4(C)[C@]31CO1)[C@H]5O | 102.85 | 97.87 | 105.06 | 104.50 | 101.23 | 2.60 | 102.08 | 105.12 | 102.77 | 105.17 | 103.82 | −63.17 | 92.12 | 92.10 | 101.18 | 104.75 | 103.54 | 17.51 | – |
| COC(=O)/C=C/C=C/[C@@H](OCC/C(C)=C/C(=O)OC[C@]12CCC(C)=C[C@H]1O[C@@H]1C[C@@H](O)[C@@]2(C)[C@]12CO2)[C@@H](C)O | 94.45 | 100.12 | 99.81 | 102.80 | 102.54 | 96.28 | – | – | – | – | – | – | – | – | – | – | – | – | – |
| (1R,2′S,4Z,6E,8R,12E,16aR,20aR,22R,23aS)-8-((R)-1-hydroxyethyl)-12,19,23a-trimethyl-1,10,11,17,18,20a,22,23a-octahydrospiro[1,22-methano[1,6,12]trioxacyclooctadecino[3,4-d]chromene-23,2′-oxirane]-3,14(8H,16H)-dione | −82.51 | −81.43 | −90.31 | −90.85 | −45.23 | −36.89 | −65.65 | −52.68 | −65.82 | −71.83 | −67.64 | −49.09 | −54.78 | −56.49 | −65.28 | −80.17 | −59.12 | −32.08 | IC50 [4]: < 0.1 nM; Anticancer activity (value at given concentration) (lung cancer cells (A549); A549, concentration 0.0001 (mM)): −22.72; Anticancer activity (value at given concentration) (lung cancer cells (A549); A549, concentration 0.001 (mM)): −16.42; Anticancer activity (value at given concentration) (lung cancer cells (A549); A549, concentration 0.01 (mM)): −10.11; Anticancer activity (value at given concentration) (lung cancer cells (A549); A549, concentration 0.1 (mM)): −56.45; Anticancer activity (value at given concentration) (lung cancer cells (A549); A549, concentration 1.0 (mM)): −34.39; Anticancer activity (value at given concentration) (lung cancer cells (A549); A549, concentration 10.0 (mM)): −64.60 |
| (2Z,4E)-(2R,2′S,4R,5S,5aR,9aR)-5a-((((E)-5-hydroxy-3-methylpent-2-enoyl)oxy)methyl)-5,8-dimethyl-2,3,4,5,5a,6,7,9a-octahydrospiro[2,5-methanobenzo[b]oxepine-10,2′-oxiran]-4-yl-7-hydroxy-6-(2-(5-oxo-2,5-dihydrofuran-3-yl)ethoxy)octa-2,4-dienoate | 87.46 | 82.77 | 34.41 | −63.80 | −73.49 | −69.86 | 102.53 | 97.10 | 17.31 | −68.64 | −68.53 | −65.16 | 96.64 | 98.23 | 84.56 | 36.36 | −39.83 | −53.70 | – |
